Test system: HIV-1 NL4-3 viral clone expressing Renilla luciferase
Assay type: cell-based
Conditions: ratio of CC50 over EC50
Description: Protocol for MT-2 Spread Assay
The present assay was used to screen candidate antiviral compounds by quantification of virus spread and production over several rounds of infection in vitro. MT-2, a HIV-1 permissive human T-cell line, was seeded in microtiter plates and was simultaneously treated with serially diluted compound and inoculated with a HIV-1 NL4-3 viral clone engineered to express Renilla luciferase in place of Net Following treatment, the culture was incubated for 96 hours. After the incubation, media was collected and used to estimate relative infectivity on the indicator cell line, TZM-bl. Additionally, viral spread was quantified by measuring luciferase activity via a commercially available luciferase substrate. In parallel, MT-2 cells were seeded and inoculated with mock virus in the presence of serially diluted compound. Compound toxicity was quantified 96 hours after treatment with AlamarBlue.
MT-2 (NIH Aids reagent program 237) cells were grown and maintained in an incubator at 37° C. with 5% CO2 using a basal medium of RPMI-1640 supplemented with 10% FBS. Cells were seeded in 100 μl at 2×10^4 cells/well in white walled 96-well microtiter plates. Candidate compounds were 3-fold serially diluted in the appropriate solvent. Solvent without compound was used as a no drug reference. Cells were inoculated at a multiplicity of 0.027 with an HIV-1 NL4-3 virus stock engineered to express Renilla luciferase in place of Net Diluted virus stock was first added to serially diluted compound. Compound and virus were delivered to cells in an equal volume (100 μl) and treated cultures were returned to the incubator for 96 hours. In parallel, plates for cytotoxicity estimates were prepared in the same way except cells were plated in clear walled 96-well microtiter plates and were mock infected.
At 96 hours post infection, 100 μl virus containing culture supernatant was collected from the treated and infected cultures and serially diluted in DMEM supplemented with 10% FBS, 1% sodium pyruvate, and 20 μg/ml DEAE dextran. One day prior, TZM-bl (ATCC PTA-5659) were cultured in basal medium of DMEM supplemented with 10% FBS and 1% sodium pyruvate and seeded at 7.5×10^3 cells/well in black walled 96-well microtiter plates. Diluted virus containing culture supernatant was transferred to TZM-bl cultures and incubated for 48 hours at 37° C. with 5% CO2. Infected TZM-bl cultures were fixed for 5 minutes with a 1% formaldehyde/0.2% gluteraldehyde/PBS solution then washed three times with PBS. Fixed cultures were incubated at 37° C. for 25 minutes with a 200 μg/ml MUG (4-Methylumbelliferyl β-D-[…])/DMEM solution. The reaction was stopped with an equal volume of 1M sodium carbonate and read at 360, 449 nm on fluorescence plate reader (Biotek).
At 96 hours post infection, 100 μl of culture supernatant was removed from the treated and infected cultures and EnduRen live cell substrate (Promega) was added at a final concentration 1.3 μg/ml. Cells were incubated for 1.5 hours at 37° C. with 5% CO2 then read on a luminescence plate reader (Biotek).
For all assays, data was imported into Accelrys Assay Explorer 3.3. In Assay Explorer, % inhibition (antiviral or cytotoxicity) was calculated using the solvent control as a reference by the following equation: 1−(SignalCompound/SignalReference). The % Inhibition and compound concentration data was fitted using the following 4-parameter logistic model (Assay Explorer model 42):
[formula] where X is compound concentration, Y is % inhibition, D is the maximum % Inhibition (constrained to 100%), C is IC50 value or inflection point, B is the hill slope, and A is the minimum % inhibition (constrained to 0%). The IC50 value is reported as the EC50 or CC50 depending on the assay endpoint. EC50 represents the effective concentration at which virus replication is inhibited by 50 percent. CC50 represents the concentration that results in the death of 50 percent of the host cells. […]

| SMILES | SI |
| --- | --- |
| COc1cc2c(cc1OCc1ccccc1)CCNC2/C=C/c1ccc(-c2cccnc2)cc1 (stereo not drawn) [DJ] | 15 |
| COc1cc2c(cc1OCc1ccccc1)CCNC2/C=C/c1ccc(-n2ccnc2)cc1 (stereo not drawn) [DK, (E)-1-(4-(1H-imidazol-1-yl)styryl)-6-(benzyloxy)-7-methoxy-1,2,3,4-tetrahydroisoquinoline] | 85 |
| COc1cc2c(cc1OCc1ccccc1)CCNC2/C=C/c1ccc2cccnc2c1 (stereo not drawn) [DL, (E)-7-(2-(6-(benzyloxy)-7-methoxy-1,2,3,4-tetrahydroisoquinolin-1-yl)vinyl)quinoline] | 72 |
| COc1cc2c(cc1OCc1ccccc1)CCNC2/C=C/c1ccc(-n2ccnc2C)cc1 (stereo not drawn) [DM, (E)-6-(benzyloxy)-7-methoxy-1-(4-(2-methyl-1H-imidazol-1-yl)styryl)-1,2,3,4-tetrahydroisoquinoline] | 14 |
| COc1cccc(-c2ncc(/C=C/C3NCCc4cc(OCc5ccccc5)c(OC)cc43)cn2)c1 (stereo not drawn) [DN] | 7.1 |
| CCN1CCN(c2ccc(/C=C/C3NCCc4cc(OCc5ccccc5)c(OC)cc43)cc2)CC1 (stereo not drawn) [DO, (E)-6-(benzyloxy)-1-(4-(4-ethylpyrazin-1-yl)styryl)-7-methoxy-1,2,3,4-tetrahydroisoquinoline] | 7.3 |
| COc1cc2c(cc1OCc1ccccc1)CCNC2/C=C/c1cn(C)c2ncccc12 (stereo not drawn) [DP] | 92 |
| COc1cc2c(cc1OCc1ccccc1)CCNC2/C=C/c1cccc(-c2ccncc2)c1 (stereo not drawn) [DQ, 6-(Benzyloxy)-7-methoxy-1-[(E)-2-[3-(pyridin-4-yl)phenyl]ethenyl]-1,2,3,4-tetrahydroisoquinoline] | 35 |
| COc1cc2c(cc1OCc1ccccc1)CCNC2/C=C/c1cscn1 (stereo not drawn) [DR, 6-(Benzyloxy)-7-methoxy-1-[(E)-2-(1,3-thiazol-4-yl)ethenyl]-1,2,3,4-tetrahydroisoquinolin] | 5.3 |
| COc1cc2c(cc1OCc1ccccc1)CCNC2/C=C/c1ccc(-c2cncnc2)cc1 (stereo not drawn) [DS, 6-(Benzyloxy)-7-methoxy-1-[(E)-2-[4-(pyrimidin-5-yl)phenyl]ethenyl]-1,2,3,4-tetrahydroisoquinoline] | 64 |
| COc1cc2c(cc1OCc1ccccc1)CCNC2/C=C/c1ccc(-n2cncn2)cc1 (stereo not drawn) [DT, 6-(Benzyloxy)-7-methoxy-1-[(E)-2-[4-(1H-1,2,4-triazol-1-yl)phenyl]ethenyl]-1,2,3,4-tetrahydroisoquinoline] | 47 |
| COc1cc2c(cc1OCc1ccccc1)CCNC2/C=C/c1cc2ccccc2s1 (stereo not drawn) [DU, 1-[(E)-2-(1-Benzothiophen-2-yl)ethenyl]-6-(benzyloxy)-7-methoxy-1,2,3,4-tetrahydroisoquinoline] | 1.6 |
| COc1cc2c(cc1OCc1ccccc1)CCNC2/C=C/c1nccs1 (stereo not drawn) [DV, 6-(Benzyloxy)-7-methoxy-1-[(E)-2-(1,3-thiazol-2-yl)ethenyl]-1,2,3,4-tetrahydroisoquinoline] | 0.74 |
| COc1cc2c(cc1OCc1ccccc1)CCNC2/C=C/c1ccc(N2CCN(C)CC2)cc1 (stereo not drawn) [DW, 6-(Benzyloxy)-7-methoxy-1-[(E)-2-[4-(4-methylpiperazin-1-yl)phenyl]ethenyl]-1,2,3,4-tetrahydroisoquinoline] | 1.9 |
| COc1cc2c(cc1OCc1ccccc1)CCNC2/C=C/c1ccccc1N1CCCCC1 (stereo not drawn) [DX, 6-(Benzyloxy)-7-methoxy-1-[(E)-2-[2-(piperidin-1-yl)phenyl]ethenyl]-1,2,3,4-tetrahydroisoquinoline] | 1.3 |
| COc1cc2c(cc1OCc1ccccc1)CCNC2/C=C/c1scnc1C (stereo not drawn) [DY, 5-[(E)-2-(6-Benzyloxy-7-methoxy-1,2,3,4-tetrahydroisoquinolin-1-yl)vinyl]-4-methyl-thiazole] | 3.9 |
| COc1cc2c(cc1OCc1ccccc1)CCNC2/C=C/c1ccc(-c2ccccn2)cc1 (stereo not drawn) [DZ, 6-Benzyloxy-7-methoxy-1-[(E)-2-[4-(2-pyridyl)phenyl]vinyl]-1,2,3,4-tetrahydroisoquinoline] | 8.9 |
| COc1cc2c(cc1OCc1ccccc1)CCNC2/C=C/c1ccc(N2CCCCC2)cc1 (stereo not drawn) [EA, 6-Benzyloxy-7-methoxy-1-[(E)-2-[4-(1-piperidyl)phenyl]vinyl]-1,2,3,4-tetrahydroisoquinoline] | 2.3 |
| COc1cc2occc2cc1/C=C/C1NCCc2cc(OCc3ccccc3)c(OC)cc21 (stereo not drawn) [EB, 6-Benzyloxy-7-methoxy-1-[(E)-2-(6-methoxybenzofuran-5-yl)vinyl]-1,2,3,4-tetrahydroisoquinoline] | 20 |
| COc1cc2c(cc1OCc1ccccc1)CCNC2/C=C/c1cccc(-c2ncco2)c1 (stereo not drawn) [EC, 2-[3-[(E)-2-(6-Benzyloxy-7-methoxy-1,2,3,4-tetrahydroisoquinolin-1-yl)vinyl]phenyl]oxazole] | 8 |
| COc1cc2c(cc1OCc1ccccc1)CCNC2/C=C/c1ccc(-c2ncco2)cc1 (stereo not drawn) [ED, 2-[4-[(E)-2-(6-Benzyloxy-7-methoxy-1,2,3,4-tetrahydroisoquinolin-1-yl)vinyl]phenyl]oxazole] | 13 |
| CCOC(=O)c1coc(-c2ccc(/C=C/C3NCCc4cc(OCc5ccccc5)c(OC)cc43)cc2)n1 (stereo not drawn) [EE, Ethyl 2-[4-[(E)-2-(6-benzyloxy-7-methoxy-1,2,3,4-tetrahydroisoquinolin-1-yl)vinyl]phenyl]oxazole-4-carboxylate] | 2.8 |
| CCOC(=O)c1coc(-c2cccc(/C=C/C3NCCc4cc(OCc5ccccc5)c(OC)cc43)c2)n1 (stereo not drawn) [EF, Ethyl 2-[3-[(E)-2-(6-benzyloxy-7-methoxy-1,2,3,4-tetrahydroisoquinolin-1-yl)vinyl]phenyl]oxazole-4-carboxylate] | 6 |
| COc1cc2c(cc1OCc1ccccc1)CCNC2/C=C/c1ccc2c(c1)OCC2 (stereo not drawn) [EG, 6-Benzyloxy-1-[(E)-2-(2,3-dihydrobenzofuran-6-yl)vinyl]-7-methoxy-1,2,3,4-tetrahydroisoquinoline] | 21.4 |
| COc1cc(OC)c(/C=C/C2NCCc3cc(OCc4ccccc4)c(OC)cc32)cc1C (stereo not drawn) [EH, 6-Benzyloxy-1-[(E)-2-(2,4-dimethoxy-5-methyl-phenyl)vinyl]-7-methoxy-1,2,3,4-tetrahydroisoquinolin] | 54.5 |
| COc1ccc(/C=C/C2NCCc3cc(OCc4ccccc4)c(OC)cc32)cc1C (stereo not drawn) [EI, 6-Benzyloxy-7-methoxy-1-[(E)-2-(4-methoxy-3-methyl-phenyl)vinyl]-1,2,3,4-tetrahydroisoquinoline] | 35.3 |
| COc1cccc(/C=C/C2NCCc3cc(OCc4ccccc4)c(OC)cc32)c1 (stereo not drawn) [EJ, 6-Benzyloxy-7-methoxy-1-[(E)-2-(3-methoxyphenyl)vinyl]-1,2,3,4-tetrahydroisoquinoline] | 3.3 |
| COc1ccc(OC)c(/C=C/C2NCCc3cc(OCc4ccccc4)c(OC)cc32)c1 (stereo not drawn) [EK, 6-Benzyloxy-1-[(E)-2-(2,5-dimethoxyphenyl)vinyl]-7-methoxy-1,2,3,4-tetrahydroisoquinoline] | 9.5 |
| COc1cc2c(cc1OCc1ccccc1)CCNC2/C=C/c1ccc(OC)c(C)c1C (stereo not drawn) [EL, 6-Benzyloxy-7-methoxy-1-[(E)-2-(4-methoxy-2,3-dimethyl-phenyl)vinyl]-1,2,3,4-tetrahydroisoquinoline] | 21.7 |
| COc1ccc(/C=C/C2NCCc3cc(OCc4ccccc4)c(OC)cc32)cc1CN1CCCCC1 (stereo not drawn) [EM, 6-Benzyloxy-7-methoxy-1-[(E)-2-[4-methoxy-3-(1-piperidylmethyl)phenyl]vinyl]-1,2,3,4-tetrahydroisoquinoline] | 5.6 |

Reference: US10195189B2, “2-phenethenyltetrahydro isoquinolines useful as anti-HIV compounds” (priority 2014, dated 2019)
